The supplement of paper PMC3578754
Fold change is the IC50 on the isolate divided by the IC50 on a reference virus; 1 = unchanged, higher = more resistant. Changes are given against the subtype B consensus. No active / inactive call. The values were gathered from many studies (numbered anew) with different assays, which the source does not name. Most viruses are clinical isolates; some are laboratory strains or clones with known resistance changes. Isolates with mixed residues are left out; stretches that were not sequenced show no change. Round top values that many isolates share are read here as limits; other very high values and 0.1 may be limits too. The protease changes I3V and N37S, insertions and deletions cannot be read from the source.

Columns and labels:
Test in all cases: fold change of IC50 against reference virus; higher = more resistant; Cell-culture drug susceptibility tests of virus bearing the protease of each isolate, gathered from many studies.
lopinavir = compound: Cc1cccc(C)c1OCC(=O)N[C@@H](Cc1ccccc1)[C@@H](O)C[C@H](Cc1ccccc1)NC(=O)[C@H](C(C)C)N1CCCNC1=O [lopinavir]
ritonavir = compound: CC(C)c1nc(CN(C)C(=O)N[C@H](C(=O)N[C@@H](Cc2ccccc2)C[C@H](O)[C@H](Cc2ccccc2)NC(=O)OCc2cncs2)C(C)C)cs1 [ritonavir]
nelfinavir = compound: Cc1c(O)cccc1C(=O)N[C@@H](CSc1ccccc1)[C@H](O)CN1C[C@H]2CCCC[C@H]2C[C@H]1C(=O)NC(C)(C)C [nelfinavir]
saquinavir = compound: CC(C)(C)NC(=O)[C@@H]1C[C@@H]2CCCC[C@@H]2CN1C[C@@H](O)[C@H](Cc1ccccc1)NC(=O)[C@H](CC(N)=O)NC(=O)c1ccc2ccccc2n1 [saquinavir]
atazanavir = compound: COC(=O)N[C@H](C(=O)N[C@@H](Cc1ccccc1)[C@@H](O)CN(Cc1ccc(-c2ccccn2)cc1)NC(=O)[C@@H](NC(=O)OC)C(C)(C)C)C(C)(C)C [atazanavir]
indinavir = compound: CC(C)(C)NC(=O)[C@@H]1CN(Cc2cccnc2)CCN1C[C@@H](O)C[C@@H](Cc1ccccc1)C(=O)N[C@H]1c2ccccc2C[C@H]1O [indinavir]

Row | Test System | fold change of IC50 against reference virus (lopinavir) | fold change of IC50 against reference virus (ritonavir) | fold change of IC50 against reference virus (nelfinavir) | fold change of IC50 against reference virus (saquinavir) | fold change of IC50 against reference virus (atazanavir) | fold change of IC50 against reference virus (indinavir)
1 | HIV-1 isolate 1010 (protease changes: I13V E35D M36I M46I I50V I62V L63P A71V L76V V82I, study 101) | 40 | 29 | 4.9 | 0.9 | 1.6 | 
2 | HIV-1 isolate 1469 (protease changes: T12Q L19I I64V, study 101) | 0.7 | 0.8 | 0.9 | 0.8 | 0.7 | 
3 | HIV-1 isolate 779 (protease changes: L10I K20R L33F E34T E35D M36I N37D K43T M46I G48V I50V I54S I62V L63P A71V I72V V77I V82A I85V I93L, study 83) | ≥ 500 | 400 | 95 |  | 90 | 186
4 | HIV-1 isolate 307 (protease changes: L10I I13V K14R L19I V32I E35D N37Q M46I F53L I54M R57K L63P A71V G73S V77I L89V L90M, study 101) | 2.5 | 9.9 | 14 | 3.1 | 10 | 
5 | HIV-1 isolate 1216 (protease changes: L10I I13V K14R L19I V32I E35D M36L N37Q M46I F53L I54M R57K L63P A71V G73S L76V V77I L89V L90M, study 101) | 13 | 52 | 55 | 19 | 52 | 
6 | HIV-1 isolate 138 (protease changes: L10I I15V K20R M36I N37D R41K M46I I54V I62V L63P I64V I72V L76V V82A I93L, study 101) | 86 | 46 | 10 | 1.3 | 0.8 | 
7 | HIV-1 isolate 1022 (protease changes: L10I L33F E35D M36I G48V I54T L63P H69R A71I V82A I84V I93L, study 64) | 64 | ≥ 800 | 76 |  | 13 | 123
8 | HIV-1 isolate 761 (protease changes: L10I I15V K20R E35D M36I R41K I54V L63P K70E A71V L76V V82A I93L, study 101) | 20 | 57 | 10 | 2.2 | 2.9 | 
9 | HIV-1 isolate 509 (protease changes: L10F I15V K20R L24I E35D M36I N37E M46I I54V I62V L63T I64V T74P I84V L89M, study 15) | 35 | 79 | 54 | 64 | 63 | 
10 | HIV-1 isolate 328 (protease changes: L10I I15V G16A K20R E35D M36I N37D M46L I54V K55R R57K I62V L63P A71V L76V V82A I93L, study 15) | 120 | 55 | 11 | 2 | 1.7 | 
11 | HIV-1 isolate 1372 (protease changes: L10I I15V M36I N37D R41K M46I I54V I62V I64V V82A I93L, study 101) | 5 | 9.3 | 3.9 | 0.4 | 1 | 
12 | HIV-1 isolate 1361 (protease changes: L10I M46I Q58E I62V L63P A71V G73T V77I V82A I85V L90M I93L, study 15) | 6.8 | 19 | 15 |  | 10 | 9.6
13 | HIV-1 isolate 887 (protease changes: L10I I15V K20R M36I N37D R41K M46I I54V I62V I64V L76V V82A I93L, study 101) | 68 | 23 | 4.2 | 0.8 | 0.5 | 
14 | HIV-1 isolate 1303 (protease changes: L10I T12Q L19I L24I K43T M46I I54V Q61R I62V L63P A71V L76V V82A I93L, study 101) | 104 | 81 | 18 | 2.6 | 5.2 | 
15 | HIV-1 isolate 628 (protease changes: L10I I15V E35D M36I R41K I54V K70E A71V V82A I93L, study 101) | 6.4 | 19 | 5.3 | 1.3 | 2 | 
16 | HIV-1 isolate 374 (protease changes: L10I I13V K20R E35D M36I M46I I50V I62V L63P A71V L76V V82I, study 101) | 72 | 34 | 6.9 | 5.3 | 1.8 | 
17 | HIV-1 isolate 1271 (protease changes: L10I I13V L63P V77I, study 65) | 1.4 | 1.6 | 3 |  | 1.4 | 1.7
